Results of unrelated studies side by side (data: NIAID ChemDB).

All rows: growth or infection tests; organism: Mycobacterium kansasii; measure: MIC

Blank or dashed fields: not listed here. Neighbouring rows are from separate reports.

compound | strain or isolate | method | conditions | value
O=C(OCc1ccccc1)N1CCC[C@H]1c1cnc(-c2ccccc2)[nH]1 | My 235/80 |  | 7 d | 32 µM
O=C(Oc1ccc(Cl)cc1C(=O)Nc1ccc(Br)cc1)c1cnccn1 | 6509/96 |  | 14 d | 2 µM
Cc1ccc(-n2c(=O)oc3ccc(F)cc3c2=S)cc1 | 6509/96 |  | 21 d | 2 µM
O=C(Oc1cc(Cl)ccc1C(=O)Nc1ccc(Cl)cc1)c1cnccn1 | 235/80 |  | 21 d | 4 µM
CC(C)[C@H](NC(=O)OCc1ccccc1)c1cnc(-c2ccccc2)[nH]1 | My 6509/96 |  | 14 d | 62.5 µM
O=C(Oc1ccc(Cl)cc1C(=O)Nc1ccc(C(F)(F)F)cc1)c1cnccn1 | 235/80 |  | 14 d | 2 µM
N/C(=N\N=C\c1ccccc1)SCc1ccc(C(F)(F)F)cc1 | ATCC 12478 | broth dilution | 21 d | 62.5 µM
O=C(Oc1cc(Cl)ccc1C(=O)Nc1ccc(Cl)cc1)c1ccccc1 | 235/80 | broth dilution | 7 d | 2 µM
O=C(Oc1ccc(Cl)cc1C(=O)Nc1ccc(Cl)cc1)c1cnccn1 | 235/80 |  | 14 d | 2 µM
O=C(Nc1cccc(Cl)c1)c1cc(Cl)ccc1OS(=O)(=O)c1ccccc1 | 6509/96 |  | 21 d | 16 µM
CC[C@@H](C)[C@H](NC(=O)OCc1ccccc1)c1cnc(-c2ccc([N+](=O)[O-])cc2)[nH]1 | My 6509/96 |  | 7 d | 16 µM
O=C(Oc1ccc(Cl)cc1C(=O)Nc1cccc(Cl)c1)c1ccccc1 | 6509/96 | broth dilution | 21 d | 8 µM
O=c1oc2ccc(Br)cc2c(=S)n1-c1ccc(Cl)cc1 | 6509/96 |  | 21 d | 4 µM
N/C(=N\N=C\c1cc(Cl)ccc1O)SCc1ccc(F)cc1 | 6509/96 | broth dilution | 14 d | 32 µM
O=C(Nc1cccc(F)c1)c1ccc(Cl)cc1OS(=O)(=O)c1ccccc1 | 235/80 |  | 21 d | 32 µM
CC[C@@H](C)[C@H](NC(=O)OCc1ccccc1)c1cnc(-c2ccccc2)[nH]1 | My 6509/96 |  | 21 d | 32 µM
N/C(=N\N=C\c1cc(Br)ccc1O)SCc1ccc(Br)cc1 | 6509/96 | broth dilution | 14 d | 32 µM
O=C(Nc1ccc(F)cc1)c1cc(Cl)ccc1O | 235/80 | broth dilution | 14 d | 4 µM
O=c1oc2ccc(Cl)cc2c(=S)n1-c1ccc(C(F)(F)F)cc1 | My 235/80 |  | 21 d | 16 µM
O=C(Nc1cccc(Br)c1)c1cc(Cl)ccc1OS(=O)(=O)c1ccccc1 | 235/80 |  | 7 d | 16 µM
O=C(Oc1cc(Cl)ccc1C(=O)Nc1ccc(C(F)(F)F)cc1)c1ccccc1 | 235/80 | broth dilution | 7 d | 1 µM
N/C(=N\N=C\c1cc(Br)ccc1O)SCc1ccc(C(F)(F)F)cc1 | 6509/96 | broth dilution | 21 d | 32 µM
O=C(Oc1cc(Cl)ccc1C(=O)Nc1ccc(C(F)(F)F)cc1)c1cnccn1 | 6509/96 |  | 14 d | 1 µM
Fc1cccc(-n2c(=S)oc3ccc(F)cc3c2=S)c1 | My 235/80 |  | 14 d | 16 µM
C[C@H](NC(=O)OCc1ccccc1)c1cnc(-c2ccccc2)[nH]1 | My 235/80 |  | 7 d | 125 µM
O=C(Oc1cc(Cl)ccc1C(=O)Nc1ccc(F)cc1)c1ccccc1 | 6509/96 | broth dilution | 14 d | 8 µM
COc1cccc(CS/C(N)=N/N=C/c2cc(Cl)ccc2O)c1 | 6509/96 | broth dilution | 21 d | 62.5 µM
O=C(Oc1cc(Cl)ccc1C(=O)Nc1cccc(Br)c1)c1cnccn1 | 235/80 |  | 7 d | 4 µM
O=C(Nc1ccc(F)cc1)c1cc(Cl)ccc1OS(=O)(=O)c1ccccc1 | 235/80 |  | 21 d | 8 µM
O=C(Oc1ccc(Cl)cc1C(=O)Nc1cccc(F)c1)c1cnccn1 | 235/80 |  | 21 d | 8 µM
O=C(Nc1ccc(C(F)(F)F)cc1)c1cc(Cl)ccc1OS(=O)(=O)c1ccccc1 | 235/80 |  | 14 d | 125 µM
COc1ccc2oc(=O)n(-c3ccccc3)c(=S)c2c1 | 6509/96 |  | 14 d | 8 µM
Cc1ccc(CS/C(N)=N/N=C/c2cc(Cl)ccc2O)cc1 | ATCC 12478 | broth dilution | 14 d | 62.5 µM
O=C(Oc1cc(Cl)ccc1C(=O)Nc1cccc(Br)c1)c1ccccc1 | 6509/96 | broth dilution | 21 d | 4 µM
N/C(=N\N=C\c1ccccc1O)SCc1ccc(Cl)cc1 | ATCC 12478 | broth dilution | 21 d | 62.5 µM
O=C(OCc1ccccc1)N1CCC[C@H]1c1cnc(-c2ccc([N+](=O)[O-])cc2)[nH]1 | My 6509/96 |  | 14 d | 62.5 µM

3 of the rows above, restated:

O=C(Nc1ccc(F)cc1)c1cc(Cl)ccc1OS(=O)(=O)c1ccccc1 ; strain or isolate: 235/80 ; conditions: 21 d ; value: 8 µM
N/C(=N\N=C\c1cc(Br)ccc1O)SCc1ccc(C(F)(F)F)cc1 ; strain or isolate: 6509/96 ; method: broth dilution ; conditions: 21 d ; value: 32 µM
O=C(Oc1ccc(Cl)cc1C(=O)Nc1ccc(C(F)(F)F)cc1)c1cnccn1 ; strain or isolate: 235/80 ; conditions: 14 d ; value: 2 µM